Results published in PMC11260460, “A Plasmodium apicoplast-targeted unique exonuclease/FEN exhibits interspecies functional differences attributable to an insertion that alters DNA-binding”.
Construct, isoform or probe ends are uncertain for at least one entry. For some of these results: A negative result means that nothing was seen under these conditions. Where a protein sequence is shown, tags need not be part of it. For some of these results: A weaker result is weaker than the reference pair of the same experiment.

How the values were obtained:
[1] = molecular target: T1, PbExo (Plasmodium berghei ANKA) (UniProt A0A509AFJ3); assay: EMSA; conditions: 2 mM Mg2+, EMSA: 400 nM FAM-DNA, 500 mM NaCl, 10 mM DTT, 1 mg/ml BSA, 10% glycerol, 2 mM MgCl2, 30 min on ice, 6% native PAGE, recombinant protein, residues 115-453, protein details: C-terminal 6xHis
T1 sequence (looked up): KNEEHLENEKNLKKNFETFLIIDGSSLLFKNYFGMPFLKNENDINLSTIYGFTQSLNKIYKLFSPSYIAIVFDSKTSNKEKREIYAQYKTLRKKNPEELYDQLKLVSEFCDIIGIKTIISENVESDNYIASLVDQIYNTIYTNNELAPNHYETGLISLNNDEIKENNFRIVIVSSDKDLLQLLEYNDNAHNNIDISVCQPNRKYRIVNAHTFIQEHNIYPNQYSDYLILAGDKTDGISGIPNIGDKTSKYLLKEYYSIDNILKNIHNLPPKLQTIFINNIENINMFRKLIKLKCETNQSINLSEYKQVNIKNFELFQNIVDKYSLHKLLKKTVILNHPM

[2] = molecular target: T2, PfExo (Plasmodium falciparum 3D7) (UniProt O96139); assay: EMSA; conditions: 2 mM Mg2+, EMSA: 400 nM FAM-DNA, 500 mM NaCl, 10 mM DTT, 1 mg/ml BSA, 10% glycerol, 2 mM MgCl2, 30 min on ice, 6% native PAGE, recombinant protein, residues 91-577, protein details: C-terminal 6xHis
T2 sequence (looked up): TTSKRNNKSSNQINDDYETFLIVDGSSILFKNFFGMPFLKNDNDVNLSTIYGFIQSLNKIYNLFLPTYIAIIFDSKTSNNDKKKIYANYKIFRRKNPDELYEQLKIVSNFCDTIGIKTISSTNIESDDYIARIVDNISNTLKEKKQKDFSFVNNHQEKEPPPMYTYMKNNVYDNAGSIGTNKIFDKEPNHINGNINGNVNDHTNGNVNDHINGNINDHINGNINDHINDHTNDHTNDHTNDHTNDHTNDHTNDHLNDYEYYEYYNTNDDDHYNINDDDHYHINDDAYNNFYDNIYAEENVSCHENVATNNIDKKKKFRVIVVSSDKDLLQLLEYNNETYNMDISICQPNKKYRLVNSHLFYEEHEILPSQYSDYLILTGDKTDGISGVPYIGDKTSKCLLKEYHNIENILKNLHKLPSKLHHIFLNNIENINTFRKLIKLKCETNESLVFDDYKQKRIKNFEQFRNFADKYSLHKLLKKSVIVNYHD

Sequence | binding result ([1]; 1-10 uM protein, label: 3' 6-FAM on strand 1) | binding result ([2]; label: 3' 6-FAM on strand 1) | binding result ([1]; shift at higher concentration than PfExo) | binding result [2]
AAAACGTCAACTAGCTTCTCAAACACCTCATATATCTTAA (double strand) [Blunt-end dsDNA (40 bp)] | no binding | binds | – | –
CTAGTGTACATGCA / AAAACGTCAACTAGCTTCTCAAACACCTCATATATCTTAA / TTAAGATATATGAGGTGTTTGAGAAGCTAGTTGACGTTTTATGCATGTACACTAG [1 nt-gapped dsDNA] | – | – | binds more weakly | binds
